# Test system: CD8+ T cells
# Format: cell-based, human
# Conditions: cells of the TCR clonotype specific for the epitope / HLA class I of the same line
row,Molecule,No. of Cells
1,TCR_49: TCR to … / A*24:02 (protein) TCR alpha: QTVTQSQPEMSVQEAETVTLSCTYDTSESDYYLFWYKQPPSRQMILVIRQEAYKQQNATENRFSVNFQKAAKSFSLKISDSQLGDAAMYFCAYTENNARLMFGDGTQLVVKPNIQNPDPAVYQLRDSKSSDKSVCLFTDFDSQTNVSQSKDSDVYITDKTVLDMRSMDFKSNSAVAWSNKSDFACANAFNNSIIPEDTFFPSPESSCDVKLVEKSFETDTNLNFQNLSVIGFRILLLKVAGFNLLMTLRLWSS TCR beta: EAQVTQNPRYLITVTGKKLTVTCSQNMNHEYMSWYRQDPGLGLRQIYYSMNVEVTDKGDVPEGYKVSRKEKRNFPLILESPSPNQTSLYFCASSLQGTGYGYTFGSGTRLTVVEDLNKVFPPEVAVFEPSEAEISHTQKATLVCLATGFFPDHVELSWWVNGKEVHSGVSTDPQPLKEQPALNDSRYCLSSRLRVSATFWQNPRNHFRCQVQFYGLSENDEWTQDRAKPVTQIVSAEAWGRADCGFTSVSYQQGVLSATILYEILLGKATLYAVLVSALVLMAMVKRKDF,3
2,TCR_56: TCR to … / A*24:02 (protein) TCR alpha: QTVTQSQPEMSVQEAETVTLSCTYDTSESDYYLFWYKQPPSRQMILVIRQEAYKQQNATENRFSVNFQKAAKSFSLKISDSQLGDAAMYFCAGNTGTASKLTFGTGTRLQVTLDIQNPDPAVYQLRDSKSSDKSVCLFTDFDSQTNVSQSKDSDVYITDKTVLDMRSMDFKSNSAVAWSNKSDFACANAFNNSIIPEDTFFPSPESSCDVKLVEKSFETDTNLNFQNLSVIGFRILLLKVAGFNLLMTLRLWSS TCR beta: DAGVTQSPTHLIKTRGQQVTLRCSPISGHKSVSWYQQVLGQGPQFIFQYYEKEERGRGNFPDRFSARQFPNYSSELNVNALLLGDSALYLCASSLWGGYTEAFFGQGTRLTVVEDLNKVFPPEVAVFEPSEAEISHTQKATLVCLATGFFPDHVELSWWVNGKEVHSGVSTDPQPLKEQPALNDSRYCLSSRLRVSATFWQNPRNHFRCQVQFYGLSENDEWTQDRAKPVTQIVSAEAWGRADCGFTSVSYQQGVLSATILYEILLGKATLYAVLVSALVLMAMVKRKDF,2
3,TCR_58: TCR to … / A*02:01 (protein) TCR alpha: GQQLNQSPQSMFIQEGEDVSMNCTSSSIFNTWLWYKQDPGEGPVLLIALYKAGELTSNGRLTAQFGITRKDSFLNISASIPSDVGIYFCAGQRDDMRFGAGTRLTVKPNIQNPDPAVYQLRDSKSSDKSVCLFTDFDSQTNVSQSKDSDVYITDKTVLDMRSMDFKSNSAVAWSNKSDFACANAFNNSIIPEDTFFPSPESSCDVKLVEKSFETDTNLNFQNLSVIGFRILLLKVAGFNLLMTLRLWSS TCR beta: DAGVIQSPRHEVTEMGQEVTLRCKPISGHNSLFWYRQTMMRGLELLIYFNNNVPIDDSGMPEDRFSAKMPNASFSTLKIQPSEPRDSAVYFCATSGDRGWQYFGPGTRLTVTEDLKNVFPPKVAVFEPSEAEISHTQKATLVCLATGFYPDHVELSWWVNGKEVHSGVSTDPQPLKEQPALNDSRYCLSSRLRVSATFWQNPRNHFRCQVQFYGLSENDEWTQDRAKPVTQIVSAEAWGRADCGFTSESYQQGVLSATILYEILLGKATLYAVLVSALVLMAMVKRKDSRG,2
4,TCR_60: TCR to … / A*02:01 (protein) TCR alpha: TGQNIDQPTEMTATEGAIVQINCTYQTSGFNGLFWYQQHAGEAPTFLSYNVLDGLEEKGRFSSFLSRSKGYSYLLLKELQMKDSASYLCAVRDLGGQKLLFARGTMLKVDLNIQNPDPAVYQLRDSKSSDKSVCLFTDFDSQTNVSQSKDSDVYITDKTVLDMRSMDFKSNSAVAWSNKSDFACANAFNNSIIPEDTFFPSPESSCDVKLVEKSFETDTNLNFQNLSVIGFRILLLKVAGFNLLMTLRLWSS TCR beta: DAGVTQSPTHLIKTRGQQVTLRCSPKSGHDTVSWYQQALGQGPQFIFQYYEEEERQRGNFPDRFSGHQFPNYSSELNVNALLLGDSALYLCASSLGQGSPAGANVLTFGAGSRLTVLEDLKNVFPPKVAVFEPSEAEISHTQKATLVCLATGFYPDHVELSWWVNGKEVHSGVSTDPQPLKEQPALNDSRYCLSSRLRVSATFWQNPRNHFRCQVQFYGLSENDEWTQDRAKPVTQIVSAEAWGRADCGFTSESYQQGVLSATILYEILLGKATLYAVLVSALVLMAMVKRKDSRG,2
5,TCR_63: TCR to … / A*02:01 (protein) TCR alpha: RKEVEQDPGPFNVPEGATVAFNCTYSNSASQSFFWYRQDCRKEPKLLMSVYSSGNEDGRFTAQLNRASQYISLLIRDSKLSDSATYLCVVNMGRGYSTLTFGKGTMLLVSPDIQNPDPAVYQLRDSKSSDKSVCLFTDFDSQTNVSQSKDSDVYITDKTVLDMRSMDFKSNSAVAWSNKSDFACANAFNNSIIPEDTFFPSPESSCDVKLVEKSFETDTNLNFQNLSVIGFRILLLKVAGFNLLMTLRLWSS TCR beta: DAGVTQSPTHLIKTRGQQVTLRCSPKSGHDTVSWYQQALGQGPQFIFQYYEEEERQRGNFPDRFSGHQFPNYSSELNVNALLLGDSALYLCASSPVAGGNTGELFFGEGSRLTVLEDLKNVFPPKVAVFEPSEAEISHTQKATLVCLATGFYPDHVELSWWVNGKEVHSGVSTDPQPLKEQPALNDSRYCLSSRLRVSATFWQNPRNHFRCQVQFYGLSENDEWTQDRAKPVTQIVSAEAWGRADCGFTSESYQQGVLSATILYEILLGKATLYAVLVSALVLMAMVKRKDSRG,2
6,TCR_65: TCR to … / A*02:01 (protein) TCR alpha: RKEVEQDPGPFNVPEGATVAFNCTYSNSASQSFFWYRQDCRKEPKLLMSVYSSGNEDGRFTAQLNRASQYISLLIRDSKLSDSATYLCVVNRDTGNQFYFGTGTSLTVIPNIQNPDPAVYQLRDSKSSDKSVCLFTDFDSQTNVSQSKDSDVYITDKTVLDMRSMDFKSNSAVAWSNKSDFACANAFNNSIIPEDTFFPSPESSCDVKLVEKSFETDTNLNFQNLSVIGFRILLLKVAGFNLLMTLRLWSS TCR beta: SQTIHQWPATLVQPVGSPLSLECTVEGTSNPNLYWYRQAAGRGLQLLFYSVGIGQISSEVPQNLSASRPQDRQFILSSKKLLLSDSGFYLCAWLRDMNTGELFFGEGSRLTVLEDLKNVFPPKVAVFEPSEAEISHTQKATLVCLATGFYPDHVELSWWVNGKEVHSGVSTDPQPLKEQPALNDSRYCLSSRLRVSATFWQNPRNHFRCQVQFYGLSENDEWTQDRAKPVTQIVSAEAWGRADCGFTSESYQQGVLSATILYEILLGKATLYAVLVSALVLMAMVKRKDSRG,2
7,TCR_66: TCR to … / A*24:02 (protein) TCR alpha: RKEVEQDPGPFNVPEGATVAFNCTYSNSASQSFFWYRQDCRKEPKLLMSVYSSGNEDGRFTAQLNRASQYISLLIRDSKLSDSATYLCVVNRDNDMRFGAGTRLTVKPNIQNPDPAVYQLRDSKSSDKSVCLFTDFDSQTNVSQSKDSDVYITDKTVLDMRSMDFKSNSAVAWSNKSDFACANAFNNSIIPEDTFFPSPESSCDVKLVEKSFETDTNLNFQNLSVIGFRILLLKVAGFNLLMTLRLWSS TCR beta: MSNQVLCCVVLCFLGANTVDGGITQSPKYLFRKEGQNVTLSCEQNLNHDAMYWYRQDPGQGLRLIYYSQIVNDFQKGDIAEGYSVSREKKESFPLTVTSAQKNPTAFYLCASMDLNTGELFFGEGSRLTVLEDLKNVFPPKVAVFEPSEAEISHTQKATLVCLATGFYPDHVELSWWVNGKEVHSGVSTDPQPLKEQPALNDSRYCLSSRLRVSATFWQNPRNHFRCQVQFYGLSENDEWTQDRAKPVTQIVSAEAWGRADCGFTSESYQQGVLSATILYEILLGKATLYAVLVSALVLMAMVKRKDSRG,2
8,TCR_69: TCR to … / A*02:01 (protein) TCR alpha: QKEVEQNSGPLSVPEGAIASLNCTYSDRGSQSFFWYRQYSGKSPELIMSIYSNGDKEDGRFTAQLNKASQYVSLLIRDSQPSDSATYLCAVNEGGGSYIPTFGRGTSLIVHPYIQNPDPAVYQLRDSKSSDKSVCLFTDFDSQTNVSQSKDSDVYITDKTVLDMRSMDFKSNSAVAWSNKSDFACANAFNNSIIPEDTFFPSPESSCDVKLVEKSFETDTNLNFQNLSVIGFRILLLKVAGFNLLMTLRLWSS TCR beta: KAGVTQTPRYLIKTRGQQVTLSCSPISGHRSVSWYQQTPGQGLQFLFEYFSETQRNKGNFPGRFSGRQFSNSRSEMNVSTLELGDSALYLCASSLAMGTSGGPYNEQFFGPGTRLTVLEDLKNVFPPKVAVFEPSEAEISHTQKATLVCLATGFYPDHVELSWWVNGKEVHSGVSTDPQPLKEQPALNDSRYCLSSRLRVSATFWQNPRNHFRCQVQFYGLSENDEWTQDRAKPVTQIVSAEAWGRADCGFTSESYQQGVLSATILYEILLGKATLYAVLVSALVLMAMVKRKDSRG,2
9,TCR_70: TCR to … / A*02:01 (protein) TCR alpha: EDQVTQSPEALRLQEGESSSLNCSYTVSGLRGLFWYRQDPGKGPEFLFTLYSAGEEKEKERLKATLTKKESFLHITAPKPEDSATYLCAVHLNDYKLSFGAGTTVTVRANIQNPDPAVYQLRDSKSSDKSVCLFTDFDSQTNVSQSKDSDVYITDKTVLDMRSMDFKSNSAVAWSNKSDFACANAFNNSIIPEDTFFPSPESSCDVKLVEKSFETDTNLNFQNLSVIGFRILLLKVAGFNLLMTLRLWSS TCR beta: MDTRVLCCAVICLLGAGLSNAGVMQNPRHLVRRRGQEARLRCSPVKGHSHVYWYRQLPEEGLKFMVYLQKENIIDESGMPKERFSAEFPKEGPSILRIQQVVRGDSAAYFCASSRPSGQGNNGYTFGSGTRLTVVEDLNKVFPPEVAVFEPSEAEISHTQKATLVCLATGFFPDHVELSWWVNGKEVHSGVSTDPQPLKEQPALNDSRYCLSSRLRVSATFWQNPRNHFRCQVQFYGLSENDEWTQDRAKPVTQIVSAEAWGRADCGFTSVSYQQGVLSATILYEILLGKATLYAVLVSALVLMAMVKRKDF,2
10,TCR_71: TCR to … / A*02:01 (protein) TCR alpha: AQKVTQAQTEISVVEKEDVTLDCVYETRDTTYYLFWYKQPPSGELVFLIRRNSFDEQNEISGRYSWNFQKSTSSFNFTITASQVVDSAVYFCALTGNTGGFKTIFGAGTRLFVKANIQNPDPAVYQLRDSKSSDKSVCLFTDFDSQTNVSQSKDSDVYITDKTVLDMRSMDFKSNSAVAWSNKSDFACANAFNNSIIPEDTFFPSPESSCDVKLVEKSFETDTNLNFQNLSVIGFRILLLKVAGFNLLMTLRLWSS TCR beta: EAGVAQSPRYKIIEKRQSVAFWCNPISGHATLYWYQQILGQGPKLLIQFQNNGVVDDSQLPKDRFSAERLKGVDSTLKIQPAKLEDSAVYLCASSLDSSLGYGYTFGSGTRLTVVEDLNKVFPPEVAVFEPSEAEISHTQKATLVCLATGFFPDHVELSWWVNGKEVHSGVSTDPQPLKEQPALNDSRYCLSSRLRVSATFWQNPRNHFRCQVQFYGLSENDEWTQDRAKPVTQIVSAEAWGRADCGFTSVSYQQGVLSATILYEILLGKATLYAVLVSALVLMAMVKRKDF,2

# — patent US20220033460A1, “IDENTIFICATION AND USE OF T CELL EPITOPES IN DESIGNING DIAGNOSTIC AND THERAPEUTIC APPROACHES FOR COVID-19” (priority 2020, published 2022)
